A mixed list of measured activities; the numbers were collected in NIAID ChemDB.

All rows: whole-cell or culture tests; organism: Pneumocystis carinii; read-out: inhibition

Inhibition is in % at the dose shown (toxicity tests: loss of growth or viability). Rows are shuffled and stem from different studies. An empty or dashed field is not shown.

CC(=O)N(O)CCCCCNC(=O)CCC(=O)N(O)CCCCCNC(=O)CCC(=O)N(O)CCCCCN.[Ca] ; cell line: Human fibroblasts ; setting: 7 d ; dose: 30 µM ; result: 95%
NC(=NCCc1ccc(F)cc1)c1ccc(N2CCN(c3ccccc3)CC2)cc1 ; dose: 10 µg/mL ; result: 69%
NC(=NCc1ccccc1)NC(=O)c1nc(Cl)c(N)nc1N ; dose: 100 µM ; result: 6%
CCN=C(N)c1ccc(N2CCN(c3ccccc3)CC2)cc1 ; dose: 10 µg/mL ; result: 87%
N=C(N)c1ccc(OCCCCOc2ccc(C(=N)N)cc2)cc1 ; dose: 0.2 µM ; result: 61%
CC(=O)Nc1ccc(C(=O)O)cc1 ; dose: 1000 µM ; result: 80%
CCC(C)n1ncn(-c2ccc(N3CCN(c4ccc(OC[C@H]5CO[C@](Cn6cncn6)(c6ccc(Cl)cc6Cl)O5)cc4)CC3)cc2)c1=O ; cell line: WI-38 ; setting: 10 d ; dose: 10 µg/mL ; result: 23%
CC(C)CN=C(N)c1ccc(N2CCCN(c3ccc(C(N)=NCC(C)C)cc3)CC2)cc1 ; dose: 1 µM ; result: 39%
CCCCCCCCN=C(N)c1ccc(N2CCN(c3ccccc3)CC2)cc1 ; dose: 0.1 µg/mL ; result: 0%
Clc1ccc(COC(Cn2ccnc2)c2ccc(Cl)cc2Cl)c(Cl)c1 ; cell line: WI-38 ; setting: 10 d ; dose: 10 µg/mL ; result: 76%
NC(=NCCO)c1ccc(N2CCCN(c3ccc(C(N)=NCCO)cc3)CC2)cc1 ; dose: 1 µM ; result: 0%
c1ccc(CNCCCNCCCCCCCNCCCNCc2ccccc2)cc1 ; dose: 3 µM ; result: 38%
NC(=NCCc1ccccc1)c1ccc(N2CCN(c3ccccc3)CC2)cc1 ; dose: 10 µg/mL ; result: 94%
CCc1c(O)c(=O)ccn1CCOC ; cell line: Human fibroblasts ; setting: 7 d ; dose: 72 µM ; result: 81%
N=C(N)c1ccc(OC/C=C\COc2ccc(C(=N)N)cc2)cc1 ; dose: 0.2 µM ; result: 91%
CCC(C)CN=C(N)c1ccc(N2CCN(c3ccccc3)CC2)cc1 ; dose: 50 µg/mL ; result: 97%
N=C(N)c1ccc(OC[C@@H](O)[C@@H](O)COc2ccc(C(=N)N)cc2)cc1 ; dose: 0.2 µM ; result: 22%
N=C(N)c1ccc(N2CCN(c3ccccc3)CC2)cc1 ; dose: 0.1 µg/mL ; result: 23%
CC(=O)N(O)CCCCCNC(=O)CCC(=O)N(O)CCCCCNC(=O)CCC(=O)N(O)CCCCCN.[Mg] ; cell line: Human fibroblasts ; setting: 7 d ; dose: 30 µM ; result: 91%
CCCCCN=C(N)c1ccc(N2CCCN(c3ccc(C(N)=NCCCCC)cc3)CC2)cc1 ; dose: 1 µM ; result: 42%
CC(=O)N1CCN(c2ccc(OC[C@H]3CO[C@](Cn4ccnc4)(c4ccc(Cl)cc4Cl)O3)cc2)CC1 ; cell line: WI-38 ; setting: 10 d ; dose: 10 µg/mL ; result: 55%
CCCCCN=C(N)c1ccc(N2CCN(c3ccccc3)CC2)cc1 ; dose: 10 µg/mL ; result: 94%

For reference, 2 entries again:

smiles,cell line,setting,dose,result
CC(C)CN=C(N)c1ccc(N2CCCN(c3ccc(C(N)=NCC(C)C)cc3)CC2)cc1,-,-,1 µM,39%
Clc1ccc(COC(Cn2ccnc2)c2ccc(Cl)cc2Cl)c(Cl)c1,WI-38,10 d,10 µg/mL,76%